# Measurements published in US5547861.
# Chains of the proteins cited; added tags and fusions are not shown. Residues count along the entry.
# UniProt P00642, 2-277: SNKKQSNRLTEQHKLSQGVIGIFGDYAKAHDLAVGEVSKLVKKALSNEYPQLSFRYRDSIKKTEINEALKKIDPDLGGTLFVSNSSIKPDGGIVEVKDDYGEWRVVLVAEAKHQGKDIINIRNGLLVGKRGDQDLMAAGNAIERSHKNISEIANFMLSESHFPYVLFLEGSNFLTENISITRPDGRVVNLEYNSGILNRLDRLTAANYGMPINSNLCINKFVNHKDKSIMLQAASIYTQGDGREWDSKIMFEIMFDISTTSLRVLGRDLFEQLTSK
# Legend:
# [1] = target: EcoRI restriction endonuclease (UniProt P00642); assay: enzyme reaction in vitro; conditions: purified native protein, label: 5'-32P
# [2] = target: T1, HincII restriction endonuclease (UniProt P17743); assay: enzyme reaction in vitro; conditions: dATPalphaS (phosphorothioate) and dUTP incorporated in polymerase-extended portions; 32P 13-mer cleavage product seen only with M.tb target; SDA buffer, 7 mM MgCl2, 41 C; purified native protein; protein details: New England Biolabs; label: 5'-32P
# T1 sequence (looked up, limits assumed): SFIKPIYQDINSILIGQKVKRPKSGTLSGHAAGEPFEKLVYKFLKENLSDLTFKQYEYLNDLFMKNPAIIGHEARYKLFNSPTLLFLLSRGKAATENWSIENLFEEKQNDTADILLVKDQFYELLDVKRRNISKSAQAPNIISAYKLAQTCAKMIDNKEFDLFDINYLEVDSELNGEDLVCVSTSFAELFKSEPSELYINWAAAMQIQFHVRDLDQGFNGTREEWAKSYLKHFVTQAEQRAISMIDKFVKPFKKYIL
sequence,measurement,setting,value
GGAATTCATCCGTATGGTGGATAACGTCTTTCA (double strand) [EcoRI-site signal primer extended to double-stranded 70-mer],activity on this sequence,"[1]; dATPalphaS (phosphorothioate) and dUTP incorporated in polymerase-extended portions, 32P dinucleotide released, seen only with M.tb target, 37 C 30 min after SDA",active
"GGAATTCATCCGTATGGTGGATAACGTCTTTCA [EcoRI-site signal primer, single-stranded 33-mer]",activity on this sequence,"[1]; no dinucleotide product without target DNA, filtrate at background, single-stranded DNA",not active
GTACGTCTATGTCAACATCCGTATGGTGGATAACGTCTTTCA (double strand) [HincII-site signal primer extended to double-stranded 79-mer],activity on this sequence,[2],active

# For part of these data: Negatives hold for the conditions tested. The exact form of at least one protein or probe is not confirmed. For part of these data: Tags and fusion partners may be left off the protein sequences shown.
